≈ marks a conversion by molar mass, not a printed value.

Experiment [1] relates to Plasmodium falciparum. The experiment can be described thus: Parasite viability index for Plasmodium falciparum Indochina W2 by [3H]hypoxanthine uptake.
The test system of experiment [2] is Plasmodium falciparum. Put plainly: Inhibition of Plasmodium falciparum D6 (Sierra Leone) by [3H]hypoxanthine uptake. Type of experiment: functional, organism-based.

Turning to `CCOP(=S)(OCC)OCC[C@@H]1CCC[C@@H]2CC[C@]3(C)OO[C@]21[C@@H](OC)O3`, the IC50 with Plasmodium falciparum [1] came to 0.4 ng/mL (≈ 0.942 nM); with Plasmodium falciparum [2], 3.7 ng/mL (≈ 8.72 nM).
For the compound `CO[C@H]1O[C@]2(C)CC[C@H]3CCC[C@@H](CCOP(=O)(Oc4ccccc4)Oc4ccccc4)[C@]31OO2`, the IC50 is less than 0.2 ng/mL in the experiment with Plasmodium falciparum [1] and 1.7 ng/mL (≈ 3.37 nM) with Plasmodium falciparum [2].

As a reminder, the IC50 is the concentration that gives 50% inhibition. A lower IC50 goes with higher potency.

(Values after ChEMBL document CHEMBL1125468, “Extraordinarily potent antimalarial compounds: new, structurally simple, easily synthesized, tricyclic 1,2,4-trioxanes” (J Med Chem, 1992).)
